The values that follow come from paper PMC3039689, “Identification of Small Molecule Lead Compounds for Visceral Leishmaniasis Using a Novel Ex Vivo Splenic Explant Model System” (PLoS Neglected Tropical Diseases, 2011).

In the data set the test system is luciferase-transfected Leishmania donovani. As to the kind of experiment: Anti-leishmanial efficacy (EC50) in the ex vivo splenic explant model. The settings on record: CC50 HepG2 / EC50 ex vivo model. Format: cell-based. The procedure:
To establish the plate assay for drug screening, the spleens from 2 infected hamsters were aseptically removed and placed in a Petri dish containing 5 mL of Collagenase D (Roche) at 2 mg/mL of buffer (10 mM Hepes pH 7.4, 150 mM NaCl, 5 mM KCl, 1 mM MgCl2, 1.8 mM CaCl2). The spleen was infiltrated by injection with approximately 2 mL of Collagenase solution, the tissue was cut into small pieces using sharp scissors, and incubated for 20 minutes at 37°C. The cell suspension and remaining tissue fragments were gently passed through a 100 µm cell strainer (B–D) to obtain a single cell suspension, which was washed twice by centrifugation (500 g for 7 min at 4°C) and re-suspended in culture medium composed of DMEM (Gibco), 5% FBS, 1 mM Sodium pyruvate (Gibco), 1X MEM amino acids solution (Sigma), 0.02% v/v/EDTA, 10 mM HEPES buffer (Cellgro) and 100 IU/mL Penicillin/100 […] Streptomycin solution (Cellgro).
The anti-leishmanial efficacy of the compounds was determined using the splenic explant model in a 96-well plate format. […] Because variation in the parasite burden between different explant cultures was expected, the concentration of cells used in each experiment was adjusted to give approximately 100 counts by luminometry (equivalent to ∼240,000 parasites). The number of surviving parasites was determined by luminometry as described above.

Consider “7-(2-(6-Ethoxy-1-methyl-1.lambda.~5~-quinolin-2-yl)vinyl)-5-methyl-8-quinolinol; Quinolinium, {6-ethoxy-2-[2-(8-hydroxy-5-methyl-7-quinolyl)vinyl]-1-methyl-} iodide”, for which the “IVTI (in vitro therapeutic index)” value came out at 8.1 ratio.

Consider “Benzalkonium Chloride [reference compound]”, for which the “IVTI (in vitro therapeutic index)” value is listed as 6.1 ratio.
